Pooled drug test results. Numbers come from NIAID ChemDB, via PubChem.

All rows: enzyme or target tests; organism: Herpes simplex virus 2; target: Thymidine kinase; endpoint: IC50

Lines come from different laboratories, so protocols vary. ICn is the concentration giving n% inhibition.

O=c1[nH]c(=O)n([C@H]2C[C@H](O)[C@@H](CO)O2)cc1C(F)(F)F ; value: 2 µM
C#C[C@H]1O[C@@H](n2cc(C)c(=O)[nH]c2=O)C[C@@H]1O ; strain: 333 ; value: 46 µM
CCc1cn([C@H]2C[C@H](O)[C@@H](CNS(=O)(=O)c3ccccc3)O2)c(=O)[nH]c1=O ; value: 4.6 µM
CC(C)CC(=O)NC[C@H]1O[C@@H](n2cc(I)c(=O)[nH]c2=O)C[C@@H]1O ; value: 8 µM
Cc1cn([C@@H]2O[C@H](CO)[C@@H](O)[C@@H]2F)c(=O)nc1N ; strain: G ; value: >200 µM
CCc1cn([C@H]2C[C@H](O)[C@@H](CNC(=O)COc3ccccc3)O2)c(=O)[nH]c1=O ; value: 0.28 µM
CCc1cn([C@@H]2O[C@H](CO)[C@@H](O)[C@@H]2F)c(=O)nc1N ; strain: G ; value: >200 µM
CCc1cn([C@H]2C[C@H](O)[C@@H](CNC(=O)C(C)Oc3ccccc3)O2)c(=O)[nH]c1=O ; value: 0.07 µM
C#Cc1cn([C@@H]2O[C@H](CO)[C@@H](O)[C@@H]2F)c(=O)nc1N ; strain: G ; value: >200 µM
O=C(NC[C@H]1O[C@@H](n2cc(I)c(=O)[nH]c2=O)C[C@@H]1O)c1ccccc1 ; value: 16 µM
CCc1cn([C@H]2C[C@H](O)[C@@H](COS(C)(=O)=O)O2)c(=O)[nH]c1=O ; value: 4.8 µM
Cc1cn([C@H]2C[C@H](O)[C@@H](CNS(=O)(=O)CCCS(=O)(=O)O)O2)c(=O)[nH]c1=O ; value: >200 µM
Nc1nc(=O)n([C@@H]2O[C@H](CO)[C@@H](O)[C@@H]2F)cc1/C=C/C(=O)O ; strain: G ; value: >200 µM
Cc1cn([C@H]2C[C@H](O)[C@@H](CNS(=O)(=O)C(F)(F)F)O2)c(=O)[nH]c1=O ; value: >200 µM
CCc1cn([C@H]2C[C@H](O)[C@@H](COP(=O)(O)OC(C)C)O2)c(=O)[nH]c1=O ; value: 40 µM
O=c1[nH]c(=O)n([C@@H]2O[C@H](CO)[C@@H](O)[C@@H]2F)cc1/C=C/Br ; strain: G ; value: >200 µM
CCc1cn([C@H]2C[C@H](O)[C@@H](COS(=O)(=O)c3ccc(C)cc3)O2)c(=O)[nH]c1=O ; value: 4.1 µM
COc1ccc(S(=O)(=O)NC[C@H]2O[C@@H](n3cc(C)c(=O)[nH]c3=O)C[C@@H]2O)cc1 ; value: 116 µM
Nc1nc(=O)n([C@@H]2O[C@H](CO)[C@@H](O)[C@@H]2F)cc1/C=C/Br ; strain: G ; value: >200 µM

For reference, 2 entries again:

{"structure": "C#C[C@H]1O[C@@H](n2cc(C)c(=O)[nH]c2=O)C[C@@H]1O", "strain": "333", "value": "46 µM"}
{"structure": "O=C(NC[C@H]1O[C@@H](n2cc(I)c(=O)[nH]c2=O)C[C@@H]1O)c1ccccc1", "value": "16 µM"}